Test results published in paper PMC4919072, “Identification and Biochemical Properties of Two New Acetylcholinesterases in the Pond Wolf Spider (Pardosa pseudoannulata)” (2016).

Amino acid sequences for entries named in this document (tags omitted). Residues count along the entry.
UniProt V5QQC6, 26-608 limits assumed: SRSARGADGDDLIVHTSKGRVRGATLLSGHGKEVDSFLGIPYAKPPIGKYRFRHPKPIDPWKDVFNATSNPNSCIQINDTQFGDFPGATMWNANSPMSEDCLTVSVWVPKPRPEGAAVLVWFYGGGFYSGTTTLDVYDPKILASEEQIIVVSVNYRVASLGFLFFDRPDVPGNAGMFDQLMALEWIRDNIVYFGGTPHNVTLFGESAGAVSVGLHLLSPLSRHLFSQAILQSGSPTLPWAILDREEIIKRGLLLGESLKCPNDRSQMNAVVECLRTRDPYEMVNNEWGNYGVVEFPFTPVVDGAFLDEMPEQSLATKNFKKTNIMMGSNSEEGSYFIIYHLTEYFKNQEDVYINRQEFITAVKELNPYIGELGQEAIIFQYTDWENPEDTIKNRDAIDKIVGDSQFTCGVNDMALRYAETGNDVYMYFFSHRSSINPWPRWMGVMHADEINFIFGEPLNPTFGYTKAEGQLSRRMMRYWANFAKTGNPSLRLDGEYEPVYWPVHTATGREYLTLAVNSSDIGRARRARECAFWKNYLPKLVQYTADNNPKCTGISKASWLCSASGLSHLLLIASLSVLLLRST
UniProt A0A1B1FIW2, 23-545 limits assumed: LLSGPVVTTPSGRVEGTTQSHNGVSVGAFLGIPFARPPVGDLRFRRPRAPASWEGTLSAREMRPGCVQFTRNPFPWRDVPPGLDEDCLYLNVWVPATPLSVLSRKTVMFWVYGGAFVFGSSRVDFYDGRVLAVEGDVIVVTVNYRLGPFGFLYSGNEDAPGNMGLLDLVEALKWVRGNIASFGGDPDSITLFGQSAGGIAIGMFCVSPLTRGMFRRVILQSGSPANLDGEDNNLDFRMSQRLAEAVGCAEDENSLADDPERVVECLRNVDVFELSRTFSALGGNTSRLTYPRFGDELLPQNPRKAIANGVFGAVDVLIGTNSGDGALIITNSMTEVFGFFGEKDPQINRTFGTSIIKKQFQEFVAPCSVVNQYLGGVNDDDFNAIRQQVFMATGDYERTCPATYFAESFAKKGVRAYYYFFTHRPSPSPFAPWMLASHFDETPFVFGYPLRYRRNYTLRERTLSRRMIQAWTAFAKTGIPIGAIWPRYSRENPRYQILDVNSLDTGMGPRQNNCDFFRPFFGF

Key:
PpAChE1 = PpAChE1 (Pardosa pseudoannulata, UniProt V5QQC6); assay: Inhibition of recombinant PpAChE1 enzyme activity (IC50, ki); details: read-out: IC50 on BTC hydrolysis, PpAChE1 expressed in Sf9 cells, 10 min incubation with inhibitor
PpAChE4 = PpAChE4 (Pardosa pseudoannulata, UniProt A0A1B1FIW2); assay: Inhibition of recombinant PpAChE4 enzyme activity (IC50, ki); details: not completely inhibited even at very high concentrations

CC(C)NP(=O)(NC(C)C)OP(=O)(NC(C)C)NC(C)C
IC50 (PpAChE1): > 200 µM | Inhibition against ATC hydrolysis (in words) (PpAChE4): very weak inhibition
